Data on one compound can be found in paper PMC2515342 (PLoS Pathogens, 2008).

Chains of the proteins cited; added tags and fusions are not shown. Residues count along the entry.
UniProt A0A6L8PY92, 27-152 limits assumed: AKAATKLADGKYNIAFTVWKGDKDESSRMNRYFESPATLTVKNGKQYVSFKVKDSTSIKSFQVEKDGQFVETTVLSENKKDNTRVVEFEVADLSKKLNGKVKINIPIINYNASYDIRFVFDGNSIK

The target in this test is T1, IsdX1 (Bacillus anthracis, UniProt A0A6L8PY92).
T1 construct: gene GBAA_4788
As to the kind of experiment: biochemical.

Molecules are shown by their SMILES.

Consider `C=CC1=C(C)C2=Cc3c(C=C)c(C)c4[n]3[Fe]([Cl])[n]3c(c(C)c(CCC(=O)O)c3=CC3=NC(=C4)C(C)=C3CCC(=O)O)=CC1=N2` [hemin chloride], for which the affinity, expressed as Kd, was 5.4 µM.
